# Literature values in US11517581B2, “Zika virus protease inhibitors and methods of use thereof” (priority 2017, dated 2022).
# Where two headings read alike, the source gives them in different places.
# Test system: ZIKV
# Conditions: cited from earlier work
smiles,measurement,setting,value
CC[C@H]1OC(=O)[C@H](C)[C@@H](O[C@H]2C[C@@](C)(OC)[C@@H](O)[C@H](C)O2)[C@H](C)[C@@H](O[C@@H]2O[C@H](C)C[C@H](N(C)C)[C@H]2O)[C@](C)(O)C[C@@H](C)CN(C)[C@H](C)[C@@H](O)[C@]1(C)O [azithromycin],Cmax:IC50 ratio,500 mg intravenous dose,≤ 2.31
same,Cmax:IC50 ratio,"oral, literature drugs",0.26
CCN(CC)CCCC(C)Nc1ccnc2cc(Cl)ccc12 (stereo not shown) [chloroquine],Cmax:IC50 ratio,"oral, literature drugs",0.12
OC(c1cc(C(F)(F)F)nc2c(C(F)(F)F)cccc12)C1CCCCN1 (stereo not shown) [mefloquine],Cmax:IC50 ratio,"oral, literature drugs",0.58
